Experimental findings from ChEMBL document CHEMBL4715853 (J Med Chem, 2020) are described below.

The assay has as its system SARS-CoV. Nature of the assay: Antiviral activity against SARS-CoV MA15 infected in Balb/c mouse assessed as protection against virus-induced lethal infection by measuring mouse survival rate at 30 mg/kg, po via gavage administered for 9 days starting from 10 hrs prior to viral infection relative to control. The following applies: time 9 day.

Take `CN(C)C(=O)COC(=O)Cc1ccc(OC(=O)c2ccc(NC(=N)N)cc2)cc1`: the Survival was found to be 60%.
